System: Streptococcus agalactiae
Experiment: Detection of Streptococcus agalactiae strains on reaction media containing an α-glucosidase enzymatic substrate
Assay type: cell-based
Design: key: T=turquoise; R=pink or red; Gr=green; Mg=magenta
Details: substrate 0.1 g/l
Description: The reaction media were prepared by mixing heart-brain extract (4.84 g/l; Solabia), meat infusion (1.96 g/l; Solabia), biothione (1 g/l; Solabia), biotrypcase (7.2 g/l; Solabia), sodium carbonate (0.3 g/l; VWR), sodium pyruvate (2 g/l; Fluka), HEPES buffer (0.4 g/l; Sigma), lactalbumin peptone (2 g/l; DMV), glucose (1 g/l; Merck), American agar (2 g/l; Sobigel) and European agar (12 g/l; Roko).
The media were then poured into a Petri dish for subsequent inoculation with bacterial strains.
Eight Streptococcus agalactiae strains derived from the applicant's collection, suspended in physiological saline, were inoculated so as to give isolated colonies on each of the media. The dishes were then incubated at 37° C. for 48 hours. The colonies formed are examined visually after 18, 24 and more than 40 hours of incubation. The coloration of these colonies, the growth and also the intensity of this coloration were noted.
The results are given in table 1 below and are expressed: • in terms of growth (G) with the size being indicated in mm, • in terms of intensity (1) of coloration based on an arbitrary scale ranging from 0 to 4, 0 corresponding to an absence of activity and 4 corresponding to the presence of a very intense coloration, • in terms of color (Co) with T=turquoise, R=pink or red, Gr=green, Mg=magenta, • according to the incubation time in hours (T).

Measured: color (Co)

OC[C@H]1O[C@H](Oc2c[nH]c3cc(Cl)ccc23)[C@H](O)[C@@H](O)[C@@H]1O [Rose-alpha-Glu, 6-chloro-3-indolyl-α-D-glucopyranoside]
R: strain 0008200, 18 h | strain 0008200, 24 h | strain 0008200, >40 h | strain 0008206, 18 h | strain 0008206, 24 h | strain 0008206, >40 h | strain 0101060, 18 h | strain 0101060, 24 h | strain 0101060, >40 h | strain 7611003, 18 h | strain 7611003, 24 h | strain 7611003, >40 h | strain 7701031, >40 h | strain 7702055, 18 h | strain 7702055, 24 h | strain 7702055, >40 h | strain 8709013, >40 h | strain 8904053, 18 h | strain 8904053, 24 h | strain 8904053, >40 h

OC[C@H]1O[C@H](Oc2c[nH]c3cc(Br)ccc23)[C@H](O)[C@@H](O)[C@@H]1O [RedA-alpha-Glu, 6-bromo-3-indolyl-α-D-glucopyranoside]
R: strain 0008200, 18 h | strain 0008200, 24 h | strain 0008200, >40 h | strain 0008206, 18 h | strain 0008206, 24 h | strain 0008206, >40 h | strain 0101060, 18 h | strain 0101060, 24 h | strain 0101060, >40 h | strain 7611003, 18 h | strain 7611003, 24 h | strain 7611003, >40 h | strain 7701031, >40 h | strain 7702055, 24 h | strain 7702055, >40 h | strain 8709013, >40 h | strain 8904053, 24 h | strain 8904053, >40 h

From US20070292908A1, “Method for Detecting Streptococcus Agalactiae Using Alpha-Glucosidase Activity” (BIOMERIEUX, priority 2004, published 2007)
